Here are results for one protein from paper PMC3136475, “Dual Chaperone Role of the C-Terminal Propeptide in Folding and Oligomerization of the Pore-Forming Toxin Aerolysin” (PLoS Pathogens, 2011).

This data set concerns the molecule itself. As to the kind of experiment: oligomerization followed by SDS-PAGE and Coomassie staining.

B1: aerolysin (mature toxin obtained by trypsin cleavage of proaerolysin) (natural protein)
chain: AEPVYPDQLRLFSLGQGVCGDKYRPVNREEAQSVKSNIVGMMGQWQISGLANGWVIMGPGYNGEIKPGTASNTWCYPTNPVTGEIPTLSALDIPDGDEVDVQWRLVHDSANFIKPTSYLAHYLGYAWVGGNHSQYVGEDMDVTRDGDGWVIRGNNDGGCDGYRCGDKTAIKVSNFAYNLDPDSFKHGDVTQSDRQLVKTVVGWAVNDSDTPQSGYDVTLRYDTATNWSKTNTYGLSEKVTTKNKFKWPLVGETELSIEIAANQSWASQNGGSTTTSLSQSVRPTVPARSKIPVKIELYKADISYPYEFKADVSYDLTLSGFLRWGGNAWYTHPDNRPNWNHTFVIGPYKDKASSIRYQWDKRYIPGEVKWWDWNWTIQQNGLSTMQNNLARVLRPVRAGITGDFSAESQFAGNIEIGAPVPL
notes: also called trypsin-processed toxin; CTP-free aerolysin
In the case of B1, the binding result is on record as “binds”.
